PubChem BioAssay AID1224833 – University of Georgia | 2016
Screen: 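Human genes whose knock-down alters rotavirus replication in monkey cells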 (primary screen). System: monkey MA104 kidney cells. Reagents: siRNA pool against human genes, 50 nM. Time to read-out: 48 h knock-down before infection; read 24 h after infection. Conditions: infection with rotavirus strain RV3 two days after transfection; infectious dose for this stage not given. Measurement: 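z-score of rotavirus antigen signal per well, from a fluorescent immunoassay, relative to non-targeting control wells on the same plate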. Direction: z-score vs non-targeting control: higher = more rotavirus replication than with non-targeting control. Rule for the call: In these data the active calls have z-score vs non-targeting control at about -1 or lower, or at about 1 or higher. Calls: active = z-score beyond 1 either way; inactive = z-score within 1 of zero.
The whole screen tested about 12,000 reagents; shown is an unselected part. About 5,600 of all reagents (46%) were called active. 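Active calls cover z-scores past 1 in both directions, so they include lowered as well as raised rotavirus replication.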 A number with no mark means an inactive call.

z-score vs non-targeting control	target gene	PubChem SID
1.01 (active)	CLIP1	SID329575214
-0.942	ABCA2	SID329572656
1.8 (active)	CMTM2	SID329582907
-1.07 (active)	SRSF2	SID329575303
-1.54 (active)	CES1	SID329573139
-0.0744	PCTP	SID329580411
0.321	VAMP4	SID329576230
0.135	MYO9B	SID329574539
0.793	CLEC1B	SID329578992
1.14 (active)	GRM6	SID329573867
0.413	KRTAP13-1	SID329582789
0.958	UNC13A	SID329577768
0.17	SAMD3	SID329583099
-0.984	SNX8	SID329578701
-0.822	AMBP	SID329572754
-0.386	VPS37D	SID329583122
0.0522	ASF1B	SID329579834
-0.991	CRYBG1	SID329572733
0.796	CARD11	SID329581619
-1.32 (active)	NHERF1	SID329576555
-1.2 (active)	MOCS2	SID329574472
-0.734	PANX2	SID329580044
-1.56 (active)	MPZL3	SID329583355
0.447	TARP	SID329584622
-1.6 (active)	CPEB3	SID329577678
-0.371	OR1L6	SID329584456
0.156	H3-3B	SID329573922
-0.925	L3MBTL1	SID329578269
0.257	FNDC1	SID329581669
-1.07 (active)	ALOX5AP	SID329572749
-0.606	KLHL10	SID329583994
-0.0926	MBNL1	SID329574400
-0.0161	HSPB3	SID329576369
2.03 (active)	SLC12A8	SID329581660
-1.2 (active)	ATP6V1F	SID329576522
-0.353	DSC2	SID329573452
-1.54 (active)	KLHL40	SID329582675
-1.76 (active)	LZTS3	SID329576777
-0.942	TMEM127	SID329579791
-0.074	ACTR2	SID329576960
0.805	ARRDC2	SID329578492
-1.9 (active)	SOWAHC	SID329580756
1.17 (active)	SHKBP1	SID329582087
0.527	TMEM91	SID329584677
-2.03 (active)	CLDN16	SID329577319
-0.303	CTIF	SID329576806
-0.29	ATG9B	SID329583960
-0.625	BLOC1S3	SID329584328
3.55 (active)	DNAJB13	SID329584225
1.31 (active)	LRRFIP2	SID329576479
-0.168	NDUFAF7	SID329579724
-0.306	ZNF76	SID329575881
-1.78 (active)	CES2	SID329576307
1.34 (active)	ZNF714	SID329582966
0.457	ZNF777	SID329578512
-0.659	NEB	SID329574567
-1.58 (active)	LYPLAL1	SID329582563
0.334	DDN	SID329577813
-0.985	TFEB	SID329575975
0.314	PRPF40B	SID329578155
0.729	CHPF	SID329580904
-1.23 (active)	PAH	SID329574742
0.466	CCDC33	SID329581146
-0.465	SLC5A8	SID329583188
-1.22 (active)	TMEM119	SID329584034
-1.49 (active)	APOBEC3C	SID329578590
1.38 (active)	PRRG4	SID329580819
-3.66 (active)	H2BC17	SID329576067
0.319	SLC32A1	SID329582799
2.19 (active)	GNPNAT1	SID329580699
0.0162	TCTN3	SID329578320
-1.98 (active)	ZNF511	SID329582365

Continued; the last 14 above are carried over.
z-score vs non-targeting control	target gene	PubChem SID
-0.985	TFEB	SID329575975
0.314	PRPF40B	SID329578155
0.729	CHPF	SID329580904
-1.23 (active)	PAH	SID329574742
0.466	CCDC33	SID329581146
-0.465	SLC5A8	SID329583188
-1.22 (active)	TMEM119	SID329584034
-1.49 (active)	APOBEC3C	SID329578590
1.38 (active)	PRRG4	SID329580819
-3.66 (active)	H2BC17	SID329576067
0.319	SLC32A1	SID329582799
2.19 (active)	GNPNAT1	SID329580699
0.0162	TCTN3	SID329578320
-1.98 (active)	ZNF511	SID329582365
0.0818	SLC35H1	SID329578849
-0.276	LRTM1	SID329580229
-1.24 (active)	IL2RB	SID329574133
-0.643	ERMN	SID329580246
-1.16 (active)	GPC2	SID329583608
0.757	ANO1	SID329579569
-1.53 (active)	ACTA2	SID329572674
-0.676	NPY2R	SID329574667
0.556	C6orf163	SID329583482
-0.467	PTX3	SID329575021
-1.42 (active)	ANXA9	SID329576101
-0.924	SNRPC	SID329575419
0.56	PIERCE1	SID329582754
-1.37 (active)	TGFB3	SID329575626
0.565	SNX11	SID329578717
-0.517	RGS16	SID329575126
-0.824	KHDC1L	SID329584752
-1.76 (active)	C1QTNF3	SID329582244
0.734	DLL3	SID329577318
-1.93 (active)	NAT8B	SID329579080
0.734	MBTPS1	SID329576255
-0.668	COLGALT1	SID329580968
-3.33 (active)	ANAPC5	SID329579065
0.283	MUC1	SID329574508
-0.959	PTGFR	SID329575011
-1.18 (active)	RELL1	SID329584745
-0.545	GPR17	SID329573834
-1.96 (active)	NFKBIL1	SID329574620
1.48 (active)	ATP5F1D	SID329572865
-0.855	CTSC	SID329573146
-1.68 (active)	ARHGEF10	SID329576701
-0.417	CGB8	SID329582142
1.28 (active)	EBPL	SID329581684
0.707	TOM1L2	SID329582914
-1.43 (active)	MREG	SID329579810
1.81 (active)	MIIP	SID329580488
1.92 (active)	CCDC51	SID329580973
0.342	CLASP2	SID329577819
